Publication PMC10852988

What was measured:
Assay in all cases: SPR
Conditions in all cases: domain or fragment
P2B-2F6 = target: P2B-2F6
S309 = target: S309
CB6 = target: CB6
CR3022 = target: CR3022

RBD 4 (synthetic homogeneous RBD with asialo biantennary N-glycans at N331 and N343, without Tpep) (from UniProt P0DTC2 319-537)
Kd (P2B-2F6): 72.7 nM

nonglycosylated RBD 6 (RBD 319–537 with Met at the N-terminus) (from UniProt P0DTC2 319-537)
Kd (S309): 3.57 nM

RBD 2 (synthetic homogeneous RBD with asialo biantennary N-glycans at N331 and N343, linker GGG and Tpep) (from UniProt P0DTC2 319-537)
Kd (CB6): 45.9 nM | Kd (CR3022): 27.9 nM

RBD 1 (synthetic homogeneous RBD with sialylated biantennary N-glycans at N331 and N343, linker GGG and Tpep) (from UniProt P0DTC2 319-537)
Kd (CB6): 66.5 nM
